Reference: PubChem BioAssay AID1259414 (Drosophila RNAi Screening Center, 2018)
The screen tested about 24,000 reagents; this is an unselected part of those with a known target gene and a result. In the full data, about 1,210 (5%) are marked active. 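Inactive calls also include excluded dsRNAs with several or no targets, genes unexpressed in JW18, and well A1, regardless of score.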 Unmarked entries are inactive. Names joined by + are all predicted targets of the reagent. Reagent sequences are not shown.

- Aim: 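Genome-wide screen for host control of endosymbiont load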 (primary screen)
- Cell system: Drosophila JW18 cells infected with Wolbachia
- Reagent: long dsRNA against Drosophila genes, 0.25 µg dsRNA per well of a 384-well plate
- Duration: 5 days
- Treatment: cells persistently infected with Wolbachia before knock-down; no added drug
- Measurement: 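Imaged fluorescence in situ signal for Wolbachia 23S rRNA per DAPI-counted host cell, given as a robust z-score within each plate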
- Reading the numbers: Wolbachia per cell robust z: higher = more Wolbachia per host cell than the plate typical
- Hit rule: 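Active if absolute robust z reaches 1.5 in two or more of three replicates, leaving out multi- or no-target dsRNAs, genes unexpressed in JW18 and A1 wells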

Ubc7 [DRSC20299] showed Wolbachia per cell robust z, rep 1 = -1.25; Wolbachia per cell robust z, rep 2 = -0.0691; Wolbachia per cell robust z, rep 3 = -2.84. For Rh2 [DRSC16821], the entry reads Wolbachia per cell robust z, rep 1 = -0.196; Wolbachia per cell robust z, rep 2 = 0.126; Wolbachia per cell robust z, rep 3 = -0.431. Against Rh2 [DRSC25598], the entry reads Wolbachia per cell robust z, rep 1 = -0.0354; Wolbachia per cell robust z, rep 2 = 3.27; Wolbachia per cell robust z, rep 3 = 0.207. Depletion of CG43235 [DRSC40529] came out at: Wolbachia per cell robust z, rep 1 = 0.562; Wolbachia per cell robust z, rep 2 = 0.741; Wolbachia per cell robust z, rep 3 = -1.1. With knock-down of pxb [DRSC13110], the screen gave Wolbachia per cell robust z, rep 1 = 0.234; Wolbachia per cell robust z, rep 2 = -3.08; Wolbachia per cell robust z, rep 3 = 0.616. pxb [DRSC14996] showed Wolbachia per cell robust z, rep 1 = 0.208; Wolbachia per cell robust z, rep 2 = 0.215; Wolbachia per cell robust z, rep 3 = -0.13.

pxb [DRSC14997] gave Wolbachia per cell robust z, rep 1 = -1.3; Wolbachia per cell robust z, rep 2 = -0.131; Wolbachia per cell robust z, rep 3 = -0.0427. For pxb [DRSC22225], the values are Wolbachia per cell robust z, rep 1 = 0.649; Wolbachia per cell robust z, rep 2 = -0.752; Wolbachia per cell robust z, rep 3 = 0.49. For pxb [DRSC25214] the deposit lists Wolbachia per cell robust z, rep 1 = 0.13; Wolbachia per cell robust z, rep 2 = -0.0485; Wolbachia per cell robust z, rep 3 = 0.38. Silencing of CG2656 [DRSC12584] gave: Wolbachia per cell robust z, rep 1 = -0.891; Wolbachia per cell robust z, rep 2 = 0.545; Wolbachia per cell robust z, rep 3 = -0.56. For Obp50e [DRSC06434], the entry reads Wolbachia per cell robust z, rep 1 = 0.101; Wolbachia per cell robust z, rep 2 = -4.46; Wolbachia per cell robust z, rep 3 = -0.841. Against CG15233 [DRSC04967] the deposit lists Wolbachia per cell robust z, rep 1 = 0.486; Wolbachia per cell robust z, rep 2 = 1.12; Wolbachia per cell robust z, rep 3 = -0.161.

For bsh [DRSC03498], the entry reads Wolbachia per cell robust z, rep 1 = -0.813; Wolbachia per cell robust z, rep 2 = -0.361; Wolbachia per cell robust z, rep 3 = -1.71. Depletion of bsh [DRSC25413] came out at: Wolbachia per cell robust z, rep 1 = 0.822; Wolbachia per cell robust z, rep 2 = 0.839; Wolbachia per cell robust z, rep 3 = 0.636. After knock-down of Rcd1 [DRSC07116] the results were Wolbachia per cell robust z, rep 1 = -0.367; Wolbachia per cell robust z, rep 2 = 1.45; Wolbachia per cell robust z, rep 3 = -0.316. Silencing of Rcd1 [DRSC23713] resulted in: Wolbachia per cell robust z, rep 1 = 0.231; Wolbachia per cell robust z, rep 2 = 0.736; Wolbachia per cell robust z, rep 3 = -0.844. For CG10660 [DRSC09769], the entry reads Wolbachia per cell robust z, rep 1 = 1.1; Wolbachia per cell robust z, rep 2 = 0.825; Wolbachia per cell robust z, rep 3 = 1.52. Silencing of CG10660 [DRSC29040] resulted in: Wolbachia per cell robust z, rep 1 = 0.49; Wolbachia per cell robust z, rep 2 = -0.343; Wolbachia per cell robust z, rep 3 = 0.604.

Depletion of Fcp1 [DRSC04121] gave: Wolbachia per cell robust z, rep 1 = -0.57; Wolbachia per cell robust z, rep 2 = -1.23; Wolbachia per cell robust z, rep 3 = -2.12. Against Fcp1 [DRSC26715], the entry reads Wolbachia per cell robust z, rep 1 = -0.0623; Wolbachia per cell robust z, rep 2 = 1.25; Wolbachia per cell robust z, rep 3 = 1.05. CG15631 [DRSC00466] gave Wolbachia per cell robust z, rep 1 = -0.205; Wolbachia per cell robust z, rep 2 = -0.792; Wolbachia per cell robust z, rep 3 = -0.0713. Against Apl + Arts [DRSC10349], the entry reads Wolbachia per cell robust z, rep 1 = 0.443; Wolbachia per cell robust z, rep 2 = -0.0747; Wolbachia per cell robust z, rep 3 = -0.178. After knock-down of CG6567 [DRSC16066], the screen gave Wolbachia per cell robust z, rep 1 = 0.475; Wolbachia per cell robust z, rep 2 = 0.483; Wolbachia per cell robust z, rep 3 = -0.774. For CG12567 + CR41519 + CR42530 [DRSC40554], the values are Wolbachia per cell robust z, rep 1 = 0.093; Wolbachia per cell robust z, rep 2 = -0.255; Wolbachia per cell robust z, rep 3 = -2.26.

Knock-down of Wdr92 [DRSC10187] came out at: Wolbachia per cell robust z, rep 1 = 0.905; Wolbachia per cell robust z, rep 2 = -0.0253; Wolbachia per cell robust z, rep 3 = -1.7. Depletion of Rpn13 [DRSC06379] gave: Wolbachia per cell robust z, rep 1 = 0.338; Wolbachia per cell robust z, rep 2 = 0.707; Wolbachia per cell robust z, rep 3 = -0.345. After knock-down of srw [DRSC08201] the results were Wolbachia per cell robust z, rep 1 = 0.122; Wolbachia per cell robust z, rep 2 = 0.356; Wolbachia per cell robust z, rep 3 = -0.108. Depletion of tws [DRSC12767] resulted in: Wolbachia per cell robust z, rep 1 = -0.361; Wolbachia per cell robust z, rep 2 = 0.784; Wolbachia per cell robust z, rep 3 = -2.38. tws [DRSC17092] scored Wolbachia per cell robust z, rep 1 = 1.39; Wolbachia per cell robust z, rep 2 = -3.06; Wolbachia per cell robust z, rep 3 = 0.101. tws [DRSC27776] showed Wolbachia per cell robust z, rep 1 = 0.697; Wolbachia per cell robust z, rep 2 = 1.29; Wolbachia per cell robust z, rep 3 = 0.443.

Already shown: entries from further up.
Fcp1 [DRSC26715] — Wolbachia per cell robust z, rep 1: -0.0623; Wolbachia per cell robust z, rep 2: 1.25; Wolbachia per cell robust z, rep 3: 1.05
CG15631 [DRSC00466] — Wolbachia per cell robust z, rep 1: -0.205; Wolbachia per cell robust z, rep 2: -0.792; Wolbachia per cell robust z, rep 3: -0.0713
Apl + Arts [DRSC10349] — Wolbachia per cell robust z, rep 1: 0.443; Wolbachia per cell robust z, rep 2: -0.0747; Wolbachia per cell robust z, rep 3: -0.178
